For experiment [1], the system named is Plasmodium falciparum. The experiment can be described thus: NOVARTIS: Inhibition of Plasmodium falciparum 3D7 (drug-susceptible) proliferation in erythrocyte-based infection assay. Type of experiment: functional, organism-based.
Experiment [2] deals with Plasmodium falciparum. Nature of the experiment: NOVARTIS: Inhibition of Plasmodium falciparum W2 (drug-resistant) proliferation in erythrocyte-based infection assay. The class given is functional, organism-based.

Structures are written as SMILES.

In the case of `O=[N+]([O-])c1ccc(NCCN(CCO)c2ccc([N+](=O)[O-])cc2[N+](=O)[O-])c(Cl)c1`, the results for the EC50 in experiment [1] and in experiment [2] were 0.668 µM and 529 nM, respectively.

On to `Cc1nc(Nc2cccc([N+](=O)[O-])c2)nc(Nc2cccc([N+](=O)[O-])c2)c1[N+](=O)[O-]`, for which the values for the EC50 in experiment [1] and in experiment [2] were 6.75 µM and 645 nM, respectively.

As a reminder, the EC50 is the concentration that produces a half-maximal response.

The record behind these values is ChEMBL document CHEMBL1156829 (Proc Natl Acad Sci U S A, 2008).
